Consider one molecule from patent US11382924B2, “Compounds and pharmaceutical uses thereof” (priority 2020, dated 2022).

In test [1] the target is 2019-nCoV 3CLPro (Severe acute respiratory syndrome coronavirus 2, UniProt P0DTD1). The test is described as follows: 2019-nCoV 3CLPro fluorogenic protease activity assay at 3 μM (35 nM protease, pH 7.0). The following applies: 3 μM sample.
The target in test [2] is SARS-CoV-2 3CLPro (Severe acute respiratory syndrome coronavirus 2, UniProt P0DTD1).
Test [3] has as its target SARS-CoV-2 viral 3CL protease (Severe acute respiratory syndrome coronavirus 2, UniProt P0DTD1). The following applies: 1 μM sample.

For `O=C(OC[C@H]1O[C@H](OC(=O)c2cc(O)c(O)c(OC(=O)c3cc(O)c(O)c(OC(=O)c4cc(O)c(O)c(O)c4)c3)c2)[C@H](OC(=O)c2cc(O)c(O)c(OC(=O)c3cc(O)c(O)c(OC(=O)c4cc(O)c(O)c(O)c4)c3)c2)[C@@H](OC(=O)c2cc(O)c(O)c(OC(=O)c3cc(O)c(O)c(OC(=O)c4cc(O)c(O)c(O)c4)c3)c2)[C@@H]1OC(=O)c1cc(O)c(O)c(OC(=O)c2cc(O)c(O)c(OC(=O)c3cc(O)c(O)c(O)c3)c2)c1)c1cc(O)c(O)c(OC(=O)c2cc(O)c(O)c(OC(=O)c3cc(O)c(O)c(O)c3)c2)c1`, the “Residual Protease Activity (%) 3 μM” value in test [1] is recorded as −7%. Also, the IC50 (in general, the point on the concentration scale where inhibition reaches its midpoint) in test [2] (Table 34, final DMSO concentration 0.05%) came out at 421 nM. Also, in test [2] (samples of Table 34, 50 nM protease, 6 μM substrate), the “50% inhibition concentration (IC50) against SARS-CoV-2 3CLPro” value was found to be 1.037 µg/mL. Moreover, in test [3], the “Residual Protease Activity (%) 1 μM” value was determined as 32%.
